Laboratory results reported in publication PMC9313427, “Identification and Characterization of an RRM-Containing, RNA Binding Protein in Acinetobacter baumannii”.
The exact form of at least one protein or probe is not confirmed. A weaker result is weaker than the reference pair of the same experiment. Tags and fusion partners may be left off the protein sequences shown.

Target: T1, rAB-Elavl (UniProt D0CAL6)
T1 sequence (looked up, limits assumed): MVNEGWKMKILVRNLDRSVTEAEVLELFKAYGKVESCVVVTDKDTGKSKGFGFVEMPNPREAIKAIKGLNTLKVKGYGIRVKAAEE
Assay: EMSA
Conditions: 40-160 nM protein, 2.5 nM probe, shifted band not clearly visible, free RNA decreases; AlphaScreen: 25 mM HEPES pH 7.4, 100 mM NaCl, 0.1% BSA, RT; REMSA: 20 mM HEPES pH 7.5, 50 mM KCl, 450 uM BSA, 0.25% glycerol, RT (gel at 4 C); recombinant protein; protein details: C-terminal 6xHis; label: DY681

**Q.** Does ACCACCCACCACCCACCCACCACCCA [IR-ARE neg] bind?
**A.** Result: binds more weakly
